A mixed list of measured activities; the numbers were collected in NIAID ChemDB.

Shared fields: tests on isolated targets

Inhibition is in % at the dose shown (toxicity tests: loss of growth or viability). ICn is the concentration giving n% inhibition. Lines come from different laboratories, so protocols vary. An empty or dashed field is not shown.

structure | mutations | protein | dose | read by | measure | value
C[C@@H]1CN(C(=O)c2ccccc2)CCN1C(=O)C(=O)c1c[nH]c2ccccc12 | - | gp120 | - | radiometric | IC50 | ~60 µM
Nc1ncnc2c1ncn2[C@H]1CC[C@@H](CO)O1 | - | S-adenosylhomocysteine hydrolase | - | radiometric | Ki | 28 µM
C=CCN(C(=O)OCc1ccccc1)C1CCN(CCC(C)(c2ccccc2)C2Nc3ccccc3S(=O)(=O)N2)CC1 | - | CCR3 | - | - | IC50 | >1 µM
Nc1nccc2c1ncn2[C@H]1CC[C@@H](CO)O1 | - | S-adenosylhomocysteine hydrolase | - | radiometric | Ki | 30.1 µM
C#Cc1cccnc1/C=C/C(=O)/C=C/c1ncccc1C#C | - | Nuclear factor-kappa B | - | - | IC50 | 1.2 µM
COC1C(CO)OC(n2c3ccccc3c3c4c(c5c6ccccc6[nH]c5c32)C(=O)N(C)C4=O)C(O)C1O | - | Topoisomerase I | 0.6 µM | - | inhibition | 95%
CN(C)CCCN1c2cc(O)c(O)cc2Sc2cc(O)c(Cl)cc21 | - | gp120 | - | - | IC50 | >200 µg/mL
COc1c(-c2ccccc2)c2ccccc2n(C)c1=O | - | Tat:TAR/LTR | - | - | IC50 | >100 µM
CC(C)C[C@H](NC(=O)C(NC(=O)[C@@H](N)C(C)C)c1cc(O)cc(O)c1)C(=O)N[C@H](Cc1ccccc1)C(=O)C(=O)N[C@H](C(=O)N[C@H](C(=O)N[C@@H](CC(=O)O)C(=O)O)C(C)C)C(C)C | - | Cathepsin D | - | - | IC50 | 8.6 µM
Cn1c2ccccc2c(=O)c2c(O)cccc21 | - | Protein kinase C | 20 µg/mL | nucleotide incorporation | inhibition | 63.2%
O=C(/C=C/c1nccc2ccccc12)/C=C/c1nccc2ccccc12 | - | Nuclear factor-kappa B | - | - | IC50 | 1.33 µM
O=c1cc(-c2ccccc2)c2ccccc2[nH]1 | - | Tat:TAR/LTR | - | - | IC50 | 20 µM
CC[C@H](C)[C@H](N)C(=O)N[C@@H](CC(N)=O)C(=O)N[C@@H](CC(N)=O)C(=O)N[C@H](C(=O)N1CCC[C@H]1C(=O)N[C@@H](Cc1c[nH]c2ccccc12)C(=O)N[C@@H](CO)C(=O)O)[C@@H](C)CC | - | gp120 | - | ELISA | IC50 | >200 µM
CO[C@H]1[C@H](O)[C@@H](O)C(n2c3ccccc3c3c4c(c5c6ccccc6[nH]c5c32)C(=O)N(CCCCOC(=O)CBr)C4=O)O[C@@H]1CO | - | Topoisomerase I | - | - | IC50 | 1.14 µM
O=C(/C=C/c1ccc2ccccc2n1)/C=C/c1ccc2ccccc2n1 | - | Nuclear factor-kappa B | - | - | IC50 | 3.95 µM
c1ccc(CNCc2ccc(CN3CCNCCNCCc4cccc(c4)CC3)cc2)nc1 | - | CXCR4 | - | calcium flux | IC50 | >1 µg/mL
O=[N+]([O-])c1ccc(-c2cnn(-c3nccc(C(F)(F)F)n3)c2)c([N+](=O)[O-])c1 | - | InhA | - | - | IC50 | 2.4 µg/mL
O=S(=O)(c1cccc2cnccc12)N1CCNCC1 | - | Protein kinase C | 4 µg/mL | nucleotide incorporation | inhibition | 40.5%
Cn1cc(C(=O)O)c(=O)c2cc(N)c(N3CCN(c4ccccn4)CC3)cc21 | - | Tat:TAR/LTR | - | - | IC50 | 720 µM
COc1cccc(/C=C/C(=O)/C=C/c2cccc(OC)n2)n1 | - | Nuclear factor-kappa B | - | - | IC50 | 4.68 µM
CC1=C(CC/C(C)=C/CC/C(C)=C/CCC2=CCOC2=O)C(C)(C)CCC1=O | - | p56lck tyrosine kinase | 500 µM | ELISA | inhibition | 55%
COc1ccccc1/C(=N\O)C(=O)C(Br)(Br)Br | - | Cathepsin D | - | - | IC50 | >1000 µM
CC(C)[C@H](NC(=O)[C@H](Cc1ccccc1)C[C@H](O)[C@H](Cc1ccccc1)NC(=O)OC(C)(C)C)C(=O)N[C@@H](Cc1ccccc1)C(=O)N1CCOCC1 | - | Cathepsin D | - | - | Ki | 0.004 µM
c1ccc(CNCc2ccc(CN3CCNCCCCCCCNCC3)cc2)nc1 | - | CXCR4 | - | calcium flux | IC50 | <1 µg/mL
CCCCCCCCCC1C[C@@H]2CC[C@H]3[C@@H](C(=O)OC(C)CCCCCCC[C@@H]4C[C@@H]5CC[C@H]6C[C@@H](C)N(O)C(=N4)N56)[C@@H](C)N=C(N1)N23 | - | CD4 | - | - | IC50 | 24 µM
CCC(O)[NH+]1CC[NH+](C(O)CC)CC1.[Cl][Pt-2]([Cl])([Cl])([Cl])([Cl])[Cl] | - | VP40:TSG101 | - | - | IC50 | 50 µM
O=C(/C=C/c1ncccc1N1CCOCC1)/C=C/c1ncccc1N1CCOCC1 | - | Nuclear factor-kappa B | - | - | IC50 | 0.56 µM
O=C1CC(C(=O)N(CCCN2CCC(Cc3ccccc3)CC2)c2ccccc2)CN1Cc1ccccc1 | - | CCR5 | 1 µM | radiometric | inhibition | 92%
O=C(O)/C=C/c1ccc(O)c(O)c1 | - | CD4 | 100 µg/mL | flow cytometry | inhibition | 35%
CN(C)CCCNC(=O)CCNC(=O)c1cc(NC(=O)c2nc(NC(=O)CCNC(=O)c3cc(NC(=O)c4nc(NC(=O)CCCNC(=O)c5cc(NC(=O)c6nc(NC(=O)CCNC(=O)c7cc(NC(=O)c8nccn8C)cn7C)cn6C)cn5C)cn4C)cn3C)cn2C)cn1C | - | RNA polymerase II | - | - | IC50 | 0.06 µM
O=S(=O)(c1cccc2cnccc12)N1CCNCC1 | - | Protein kinase C | 0.16 µg/mL | nucleotide incorporation | inhibition | 23.8%
O=C(/C=C/c1ncc(Cl)cc1Cl)/C=C/c1ncc(Cl)cc1Cl | - | Nuclear factor-kappa B | - | - | IC50 | 17.67 µM
CCCCCCCCCC1C[C@@H]2CC[C@H]3[C@@H](C(=O)OC(C)CCCCC[C@@H]4C[C@@H]5CC[C@H]6C[C@@H](C)NC(=N4)N56)[C@@H](C)N=C(N1)N23 | - | CD4 | - | - | IC50 | <30 µM
c1ccc(CNCc2ccc(CN3CCCCCCCNCCNCC3)cc2)nc1 | - | CXCR4 | - | calcium flux | IC50 | >1 µg/mL
Clc1cc(CN2CCCNCCNCCCNCC2)cc(Cl)n1 | CXCR4-D193N | CXCR4 | - | - | IC50 | 0.34 µM
O=C(/C=C/c1ncccc1Br)/C=C/c1ncccc1Br | - | Nuclear factor-kappa B | - | - | IC50 | 5.02 µM
CC(C)CCC[C@@H](C)[C@H]1CC[C@H]2[C@@H]3CC[C@H]4C[C@@H](CCCC(c5cccc6cc(S(=O)(=O)O)ccc56)c5cccc6cc(S(=O)(=O)O)ccc56)CC[C@]4(C)[C@H]3CC[C@]12C | - | CD4 | - | ELISA | IC50 | 9 µM
Cn1c2ccccc2c(=O)c2c(O)cccc21 | - | Protein kinase C | 20 µg/mL | nucleotide incorporation | inhibition | 63.2%

2 of the rows above, restated:

| structure | mutations | protein | dose | read by | measure | value |
|---|---|---|---|---|---|---|
| O=C(/C=C/c1ncccc1Br)/C=C/c1ncccc1Br | - | Nuclear factor-kappa B | - | - | IC50 | 5.02 µM |
| COc1c(-c2ccccc2)c2ccccc2n(C)c1=O | - | Tat:TAR/LTR | - | - | IC50 | >100 µM |